Anti-infective test results gathered from many reports (values: NIAID ChemDB through PubChem).

Shared fields: whole-cell or culture tests; organism: HIV-1; method: cytopathic effect / MTT; read-out: EC50

ECn is the concentration giving n% inhibition of infection, replication or growth.

smiles	cells	strain or isolate	mutations	result
Cc1[nH]c(=S)n(Nc2cccc([N+](=O)[O-])c2)c1-c1ccccc1	MT-4	SO561945 (RT K103N Y181C)	RT-K103N Y181C	42.18 µM
NCCCCCCCCNC(=O)Cc1cn([C@@H]2C=C[C@H](CO)O2)c(=O)[nH]c1=O	CEM + CEM-SS	LAI		>100 µM
CC(C)CN(C[C@@H](O)[C@H](Cc1ccccc1)NC(=O)OCc1cncs1)S(=O)(=O)c1ccc2nc(N)sc2c1	MT-4	LAI		0.005 µM
CC(C)(C)NC(=O)c1c(OC[C@@H](O)[C@H](Cc2ccccc2)NC(=O)[C@H](CC(N)=O)NC(=O)c2ccc3ccccc3n2)ccc2ccccc12	CEM	IIIB		0.24 µM
CN1c2ccccc2C2C1C=CC(=O)N2c1ccc(-c2noc(=O)n2C)cc1	MT-4	LAI		1–32 µM
Cc1ncn(Nc2ccccc2)c1-c1ccccc1	MT-4	IIIB		≥11.67 µM
COC(=O)Cn1c(Cc2ccccc2)c(C(C)C)c(=O)[nH]c1=O	MT-4	IIIB		0.77 µM
S=c1[nH]c2c(n1Nc1cccc(Cl)c1)CCCC2	MT-4	NL4-3		>126 µM
CNc1nc2ccc(S(=O)(=O)N(CC(C)C)C[C@@H](O)[C@H](Cc3ccccc3)NC(=O)OC3COC4OCCC34)cc2s1	MT-4	LAI		0.0005 µM
CC(C)(C)NC(=O)c1cc2ccccc2cc1OC[C@@H](O)[C@H](Cc1ccccc1)NC(=O)[C@H](CC(N)=O)NC(=O)c1ccc2ccccc2n1	CEM	IIIB		0.24 µM
O=S(=O)(O)O.OCC1OC(OC2C(O)C(CO)OC(OC3C(O)C(CO)OC(OC4C(O)C(O)OC(CO)C4O)C3O)C2O)C(O)C(O)C1O	MT-4	IIIB		>300 µg/mL
CCOCn1c(Cc2ccccc2)c(C(C)C)c(=O)[nH]c1=O	MT-4	IIIB		0.018 µM
COc1cccc(Nn2cnc(C)c2-c2ccccc2)c1	MT-4	IIIB		>34.44 µM
CCOC(=O)CN1c2ccccc2C2C1C=C(C#N)C(=O)N2c1ccc([N+](=O)[O-])cc1	MT-4	LAI		1–32 µM
NCCCCCCCCCCCCNC(=O)Cc1cn([C@@H]2C=C[C@H](CO)O2)c(=O)[nH]c1=O	CEM + CEM-SS	LAI		4.4 µM
O=C(O)CCCCCCCCCCCCCNC(=O)C(CO[C@@H]1O[C@H](CO)[C@H](O)[C@H](O)[C@H]1O)NC(=O)CCC(=O)O	MT-4	IIIB		>100 µM
CC(C)c1c(Cc2ccccc2)n(CCCCCC(N)=O)c(=O)[nH]c1=O	MT-4	IIIB		1.8 µM
N#CC1=CC2Nc3ccccc3C2N(c2cccc([N+](=O)[O-])c2)C1=O	MT-4	LAI		1–32 µM
CC(C)CN(C[C@@H](O)[C@H](Cc1ccccc1)NC(=O)O[C@H]1CO[C@H]2OCC[C@H]21)S(=O)(=O)c1ccc2nc(N)sc2c1	MT-4	F	PR-L10F M46I M71V I84V	0.004 µM
Nc1nc(N)c2ncn(CC3(CO)C[C@@H]3CO)c2n1	CEM	RF		>100 µg/mL
Cc1cccc(Nn2c(-c3ccccc3)c(C)[nH]c2=S)c1	MT-4	IIIB		1.56 µM
CNc1nc2ccc(S(=O)(=O)N(CC(C)C)C[C@@H](O)[C@H](Cc3ccccc3)NC(=O)OCc3cnco3)cc2s1	MT-4	LAI		0.003 µM
CCOC(=O)CCCn1c(Cc2ccccc2)c(C(C)C)c(=O)[nH]c1=O	MT-4	IIIB		1.6 µM
CCn1c(C)c(C(=O)OC)c(C(=O)OC)c1Cc1ccccc1	MT-4	A17	RT-K103N Y181C	>10 µM
Cc1cn([C@H]2C=C[C@@H](CO)O2)c(=O)[nH]c1=O	CEM + CEM-SS	LAI		0.059 µM
CN1c2ccccc2C2C1C=CC(=O)N2c1ccc(C#N)cc1	MT-4	LAI		1–32 µM
O=c1cc(Cc2ccc3ccccc3c2)nc(SC2CCCC2)[nH]1	H9(HIV-1(IIIB)) + H9	IIIB		>100 µM
CCCCCCCCCCCCCCNC(=O)C(CO[C@@H]1O[C@H](CO)[C@H](O)[C@H](O)[C@H]1O)NC(=O)CC(=O)NCCS(=O)(=O)O	MT-4	IIIB		>100 µM
CCOC(=O)CCCCCn1c(Cc2ccccc2)c(C(C)C)c(=O)[nH]c1=O	MT-4	IIIB		88 µM
Nc1nc(N)c2ncn(CC3(CO)CC3CO)c2n1	CEM	RF		>100 µg/mL
O=S(=O)(O)O.OCC1OC(OC2C(O)C(CO)OC(OC3C(O)C(CO)OC(OC4C(O)C(CO)OC(OC5C(O)C(O)OC(CO)C5O)C4O)C3O)C2O)C(O)C(O)C1O	MT-4	IIIB		>300 µg/mL
S=c1[nH]c(-c2ccccc2)c(-c2ccccc2)n1Nc1cccc(Cl)c1	MT-4	IIIB		>36.31 µM
O=C(O)CCCCCCCCCCCCCNC(=O)C(CO[C@@H]1O[C@H](CO)[C@H](O)[C@H](O)[C@H]1O)NC(=O)CCCCCCCCCCC(=O)O	CEM + CEM-SS	LAI		>100 µM
NCCCCCCCCNC(=O)Cc1cn([C@H]2C=C[C@@H](CO)O2)c(=O)[nH]c1=O	CEM + CEM-SS	LAI		>100 µM
Cc1c(O)cccc1C(=O)N[C@@H](Cc1ccccc1)[C@H](O)CN(CC(C)C)S(=O)(=O)c1ccc2nc(N)sc2c1	MT-4	F	PR-L10F M46I M71V I84V	6.31 µM

4 of the rows above, restated:

smiles,cells,strain or isolate,mutations,result
CCOCn1c(Cc2ccccc2)c(C(C)C)c(=O)[nH]c1=O,MT-4,IIIB,,0.018 µM
CCOC(=O)CCCn1c(Cc2ccccc2)c(C(C)C)c(=O)[nH]c1=O,MT-4,IIIB,,1.6 µM
N#CC1=CC2Nc3ccccc3C2N(c2cccc([N+](=O)[O-])c2)C1=O,MT-4,LAI,,1–32 µM
Cc1cn([C@H]2C=C[C@@H](CO)O2)c(=O)[nH]c1=O,CEM + CEM-SS,LAI,,0.059 µM

Two numbers with a dash give a range or band. Conditions beyond the fields shown may differ between rows. Blank or dashed fields: not listed here.